For orientation: IC50 means the concentration at which inhibition is half-maximal.

We go through one substance from PMC3679007 (PLoS ONE, 2013).

For the test, the target named is clade 2.1 HPAI H5N1 isolates from Indonesia (neuraminidase) (Influenza A virus, UniProt F5HQR3). The conditions noted are these: read-out: IC50, Mean; Batch 2; log10 transformed, back transformed.

In the case of oseltamivir, the IC50 amounted to 23.3 nM.
